Pooled drug test results. Numbers come from NIAID ChemDB, via PubChem.

Common to all: growth or infection tests; agent: Mycobacterium tuberculosis

MIC bound comes from a single tested concentration. Inhibition is in % at the dose shown (toxicity tests: loss of growth or viability). MIC50, MIC90 and the like: level of inhibition, or share of isolates inhibited. ECn is the concentration giving n% inhibition of infection, replication or growth. An empty or dashed field is not shown. Conditions beyond the fields shown may differ between rows.

| smiles | read by | strain | endpoint | dose | value |
|---|---|---|---|---|---|
| COc1ccc2c(C)cc(N/N=C(/c3ccccc3)c3ccccn3)nc2c1 | BACTEC | H37Rv | MIC bound |  | ≤12.5 µg/mL |
| c1ccc(-c2nc3sc(-c4cccs4)nn3c2CN2CCCCC2)cc1 | BACTEC | H37Rv | inhibition | 6.25 µg/mL | <90% |
| CC(O)c1c(-c2ccccc2)c(-c2ccccc2)n2ccc(C#N)cc12 |  | H37Rv | inhibition | 6.25 µg/mL | 78% |
| COc1ccc(C(=O)Nc2nc(C)cs2)c(O)c1 |  | My 331/88 | MIC |  | 125 µM |
| NC1=CNC(=O)C1 | BACTEC | H37Rv | MIC bound |  | >12.5 µg/mL |
| O=C(CSc1nc(-c2ccccc2)c(-c2ccccc2)[nH]1)N=Nc1c(O)[nH]c2ccccc12 |  | H37Rv | MIC |  | >12.5 µg/mL |
| O=C(N/N=C/NN/C=N/NC(=O)C1CCS(=O)(=O)C1)C1CCS(=O)(=O)C1 | BACTEC | H37Rv | MIC bound |  | >12.5 µg/mL |
| CCCCCCCC(O)c1c(-c2ccccc2)c(-c2ccccc2)n2ccc(C#N)cc12 |  | H37Rv | inhibition | 6.25 µg/mL | 57% |
| Brc1ccc(-c2nc3sc(-c4ccco4)nn3c2CN2CCCCC2)cc1 | BACTEC | H37Rv | inhibition | 6.25 µg/mL | <90% |
| CC(=O)Nc1nc(C(N)=O)cs1 | BACTEC | H37Rv | inhibition | 12.5 µg/mL | -25% |
| CCN(CC)CCNC(=O)c1ccc([N+](=O)[O-])cc1Cl |  | N353 | MIC |  | 50 µg/mL |
| CO[C@H]1/C=C/O[C@@]2(C)Oc3c(C)c(O)c4c(O)c(c5c(c4c3C2=O)NC2(CCN(CC(C)C)CC2)N=5)=NC(=O)/C(C)=C\C=C\[C@H](C)[C@H](O)[C@@H](C)[C@@H](O)[C@@H](C)[C@H](OC(C)=O)[C@@H]1C |  | 30 isolates/HIV+ | MIC50 |  | 0.25 µg/mL |
| CS(=O)(=O)OCCN(CCOS(C)(=O)=O)c1ccc(C=Nc2ccc3ccccc3c2)c(Cl)c1.Cl | BACTEC | H37Rv | MIC bound |  | >12.5 µg/mL |
| O=C(Nc1ccc(F)cc1)c1cccnc1Cl |  | H37Rv | MIC |  | >20 µg/mL |
| Cc1c(C(=O)NC(C)(C)C)[n+](=O)c2ccccc2n1[O-] |  | H37Rv | inhibition | 6.25 µg/mL | 10% |
| Nc1ccc(N=Nc2ccc(O)cc2)c(N)n1 | BACTEC | H37Rv | inhibition | 12.5 µg/mL | 11% |
| Cc1cc(C)nc(NC(=O)c2ccccc2O)n1 |  | My 331/88 | MIC |  | 1000 µM |
| N#Cc1ccn2c(-c3ccc(Cl)cc3)c(-c3ccc(Cl)cc3)c(C(O)c3ccccc3)c2c1 |  | H37Rv | inhibition | 6.25 µg/mL | 86% |
| O=c1oc(-c2ccncc2)nn1CN1CCC(Cc2ccccc2)CC1 |  | H37Rv | MIC |  | 2.5 µg/mL |
| C=C1C(=O)O[C@@H]2C[C@@H](C)[C@@H]3[C@@H](OC4OC(COC(C)=O)C(O)C(O)C4O)CC(=O)[C@@]3(C)C[C@H]12 | BACTEC | H37Rv | inhibition | 12.8 µg/mL | 96% |
| COCCN(C1CCN(CC2C=[N+](Cc3ccccc3)c3c(C)cccc32)C1)S(C)(=O)=O |  |  | MIC |  | 25 µM |
| O=C(Nn1cncn1)c1ccc(Cl)cc1O |  | My 331/88 | MIC |  | 1000 µM |
| Cc1cc(NC(=O)c2ccc(N)cc2)ccc1N=Nc1ccc2cc(S(=O)(=O)O)cc(S(=O)(=O)O)c2c1 | BACTEC | H37Rv | inhibition | 12.5 µg/mL | 0% |
| O/N=C/c1c(-c2ccccc2)nc2sc(C3CCCCC3)nn12 | BACTEC | H37Rv | inhibition | 6.25 µg/mL | <90% |
| COCCN(C1CCN(Cc2c(-c3ccccc3)[nH]c3c(C)cccc23)C1)S(C)(=O)=O |  |  | MIC |  | 1.1 µM |
| CCCCN=C(N=Nc1c(O)[nH]c2ccccc12)SCC(=O)c1ccc([N+](=O)[O-])cc1 |  | H37Rv | EC50 |  | <12 µg/mL |
| CCN(CC)CCNC(=O)c1cccc([N+](=O)[O-])c1 |  | H37Rv | MIC |  | 50 µg/mL |
| CCCC(O)c1c(-c2ccccc2)c(-c2ccccc2)n2ccc(C#N)cc12 |  | H37Rv | inhibition | 6.25 µg/mL | 84% |
| COCCN(C1CCN(CC2C(c3ccncc3)=Nc3c(C)cccc32)C1)S(C)(=O)=O |  |  | MIC |  | 200 µM |
| CC[C@@H](CO)NCCN[C@@H](CC)CO | resazurin |  | MIC |  | 0.06 µg/mL |
| O=C1C(=Nc2cccc(Cl)c2)CC(c2ccc(Cl)cc2)N1c1cccc(Cl)c1 | BACTEC | H37Rv | MIC |  | ≥12.8 µg/mL |
| Cc1ccc[n+]2c1[nH]c(=O)c1cccnc12 |  | H37Rv | MIC |  | >20 µg/mL |
| Nc1ccc(N=Nc2ccc3cc4ccc(N=Nc5ccc(N)nc5N)cc4nc3c2)c(N)n1 | BACTEC | H37Rv | MIC bound |  | >12.5 µg/mL |
| CC1S/C(=N/N=C2\C(=O)Nc3ccc(Br)cc32)N(C2CCCCC2)C1=O |  | H37Rv | MIC |  | >12.5 µg/mL |
| COC1=C(C2=C(OC)C(=O)c3cc4c(c(O)c3C2=O)C(=O)OC(C)C4)C(=O)c2c(cc3c(c2O)C(=O)OC(C)C3)C1=O | BACTEC | H37Rv | inhibition | 12.5 µg/mL | 62% |
| N#Cc1ccn2c(-c3ccc(F)cc3)c(-c3ccc(F)cc3)c(Br)c2c1 |  | H37Rv | inhibition | 6.25 µg/mL | 58% |
| O=C(NNC(=O)c1ccc(Cl)c([N+](=O)[O-])c1)c1ccncc1 | resazurin | ATTC 27294 | MIC |  | 0.5 µg/mL |
| CC1CCCCN1n1nc(-c2ccncc2)oc1=O |  | H37Rv | MIC |  | 2.5 µg/mL |
| Brc1ccc(-c2cn3nc(-c4ccco4)sc3n2)cc1 | BACTEC | H37Rv | inhibition | 6.25 µg/mL | <90% |
| O=c1oc(-c2ccncc2)nn1CN1CCCCCC1 |  | H37Rv | MIC |  | 2.5 µg/mL |
| Cc1ccc2c(c1)[n+](=O)c(C(=O)Nc1ccccc1)c(C)n2[O-] |  | H37Rv | MIC |  | >6.25 µg/mL |
| Cc1ncc([N+](=O)[O-])n1CCSC(N)=O | resazurin | H37Rv | inhibition | 6.25 µg/mL | -7% |
| CC(C)=CCC/C(C)=C/CC/C(C)=C/CC/C(C)=C/Cn1c[n+](C)c2ncnc(N)c21 |  |  | inhibition | 6.25 µg/mL | 38% |
| CO[C@H]1/C=C/O[C@@]2(C)Oc3c(C)c(O)c4c(c3C2=O)C(=O)C(N2CCC(=NO)CC2)=C(NC(=O)/C(C)=C\C=C\[C@H](C)[C@H](O)[C@@H](C)[C@@H](O)[C@@H](C)[C@H](OC(C)=O)[C@@H]1C)C4=O |  | H37Rv | MIC |  | 0.0025 µg/mL |
| O=[n+]1c2ccccc2n([O-])c2ccccc21.[Cl][Cu][Cl] | BACTEC | H37Rv | MIC bound |  | ≤12.5 µg/mL |
| CO[C@H]1/C=C/O[C@@]2(C)Oc3c(C)c(O)c4c(c3C2=O)C(=O)C(N2CCC(=NOCc3ccccc3)CC2)=C(NC(=O)/C(C)=C\C=C\[C@H](C)[C@H](O)[C@@H](C)[C@@H](O)[C@@H](C)[C@H](OC(C)=O)[C@@H]1C)C4=O |  | H37Rv | MIC |  | 0.0025 µg/mL |
| c1ccc(-c2nc3sc(C4CCCCC4)nn3c2CN2CCCCC2)cc1 | BACTEC | H37Rv | inhibition | 6.25 µg/mL | <90% |
| O=c1oc(-c2ccncc2)nn1CN1CCN(Cc2ccccc2)CC1 |  | H37Rv | MIC |  | 2.5 µg/mL |
| Cc1ccc(-c2c(Br)c3cc(C#N)ccn3c2-c2ccc(C)cc2)cc1 |  | H37Rv | inhibition | 6.25 µg/mL | 52% |
| CCCCn1c(-c2ccc(OC)cc2)cs/c1=N\N=C1/C(=O)Nc2ccccc21 |  | H37Rv | MIC |  | >12.5 µg/mL |
| NN.NNC(=S)S | BACTEC | H37Rv | inhibition | 128 µg/mL | 100% |
| CONc1ncnc2c1n(C/C=C(\C)CC/C=C(\C)CC/C=C(\C)CCC=C(C)C)c[n+]2C |  |  | MIC |  | 3.13 µg/mL |
| CC(C)(C)C1CCC(=NNC(=O)c2ccncc2)CC1 |  | INH resistant | MIC |  | >0.75 µg/mL |
| C=C1CC[C@@H]2C(C)(C)CCC[C@@]2(C)[C@@H]1CC/C(C)=C/C(=O)O | resazurin |  | MIC |  | 125 µg/mL |
| COCCN(C1CCN(CC2C(c3ccccc3)=Nc3c(C)ccc(F)c32)C1)S(C)(=O)=O |  |  | MIC |  | 25 µM |
| O=C(CSc1nc2ccc(Cl)cc2c(=O)n1-c1ccccc1)N=Nc1c(O)[nH]c2ccccc12 |  | H37Rv | inhibition | 12 µg/mL | 61% |
| O=C1c2ccccc2C(=O)c2c1sc1nc3ccccc3n21 | BACTEC | H37Rv | MIC bound |  | ≤12.5 µg/mL |
| O=C(NNc1ccccc1[N+](=O)[O-])c1cccnc1Cl |  | H37Rv | MIC |  | >20 µg/mL |
| NCC[C@H](O)C(=O)N[C@@H]1C[C@H](N)[C@@H](O[C@H]2O[C@H](CN)[C@@H](O)[C@H](O)[C@H]2O)[C@H](O)[C@H]1O[C@H]1O[C@H](CO)[C@@H](O)[C@H](N)[C@H]1O |  | 30 isolates/HIV+ | MIC50 |  | 64 µg/mL |
| NNC(=O)c1ccncc1 |  | H37Rv | MIC |  | >20 µg/mL |
| COc1c(N2CCNC(C)C2)c(F)cc2c(=O)c(C(=O)O)cn(C3CC3)c12 |  | T865 streptomycin-resistant | MIC |  | 0.25 µg/mL |
| Cc1ccnc(NC(=O)c2ccc(Cl)cc2O)n1 |  | My 331/88 | MIC |  | 62.5 µM |
| S=c1oc(-c2ccncc2)nn1CN1CCC(Cc2ccccc2)CC1 |  | H37Rv | MIC |  | 40 µg/mL |
| c1ccc(-c2nc3sc(C4CCCCC4)nn3c2CN2CCCC2)cc1 | BACTEC | H37Rv | inhibition | 6.25 µg/mL | <90% |
| O=C(O)C1OC(O)C(O)C(O)C1O | BACTEC | H37Rv | inhibition | 12.5 µg/mL | 12% |
| C=C1C[C@@]23CC[C@H]4[C@@](C)(CCC[C@@]4(C)C(=O)O)[C@@H]2CC[C@H]1C3 | resazurin |  | MIC |  | 125 µg/mL |
| O=C(Nn1cncn1)c1cc(Cl)ccc1O |  | My 331/88 | MIC |  | 1000 µM |
| Cc1ccc2[nH]c(=O)c3cccnc3[n+]2c1 |  | H37Rv | MIC |  | >20 µg/mL |
| COc1ccccc1N1CCN(C(=O)c2c(C)n([O-])c3cc(Cl)c(Cl)cc3[n+]2=O)CC1 |  | H37Rv | MIC |  | >6.25 µg/mL |
| Cc1ccnc(NC(=O)c2cc(Cl)ccc2O)n1 |  | My 331/88 | MIC |  | 250 µM |
| CCCCCC(O)c1c(-c2ccccc2)c(-c2ccccc2)n2ccc(C#N)cc12 |  | H37Rv | inhibition | 6.25 µg/mL | 96% |
| CC(C)CCCC(C)C1CCC2C3CC=C4CC(C(=O)NN)CCC4(C)C3CCC12C | BACTEC | H37Rv | MIC |  | ≥12.5 µg/mL |
| O/N=C/c1c(-c2ccccc2)nc2sc(-c3ccco3)nn12 | BACTEC | H37Rv | inhibition | 6.25 µg/mL | <90% |
| CCN(CC)CCNC(=O)c1cc([N+](=O)[O-])cc([N+](=O)[O-])c1 |  | H37Rv | MIC |  | 5 µg/mL |
| Cc1cc2c(cc1C)[n+](=O)c(C(=O)N1CCN(c3ccc([N+](=O)[O-])cc3)CC1)c(C)n2[O-] |  | H37Rv | inhibition | 6.25 µg/mL | 0% |
| Cc1cccc2c1N=C(c1ccccc1)C2CN1CCC(N)C1 |  |  | MIC |  | 3.12 µM |
| O=C(NNc1cccc([N+](=O)[O-])c1)c1cccnc1Cl |  | H37Rv | MIC |  | >20 µg/mL |
| CSC(=S)NNC(C)c1nccc2ccccc12 | BACTEC | H37Rv | MIC bound |  | ≤128 µg/mL |
| O=C(N/N=C/c1ccc(Cl)cc1[N+](=O)[O-])c1ccncc1 | resazurin | ATTC 27294 | MIC |  | 1.2 µg/mL |
| COc1ccccc1N1CCN(C(=O)c2c(C)n([O-])c3cc(C)c(C)cc3[n+]2=O)CC1 |  | H37Rv | inhibition | 6.25 µg/mL | 0% |
| OCc1c(-c2ccc(Br)cc2)nc2sc(-c3ccco3)nn12 | BACTEC | H37Rv | inhibition | 6.25 µg/mL | <90% |
| C[n+]1c(-c2ccc(/C=N/NC(=O)c3ccc(C(=O)N/N=C/c4ccc(-c5cn6ccccc6[n+]5C)cc4)nc3)cc2)cn2ccccc21.Cc1ccc(S(=O)(=O)[O-])cc1.Cc1ccc(S(=O)(=O)[O-])cc1 | BACTEC | H37Rv | inhibition | 12.5 µg/mL | 28% |
| CO[C@H]1/C=C/O[C@@]2(C)Oc3c(C)c(O)c4c(c3C2=O)C(=O)C(N2CCC(=O)CC2)=C(NC(=O)/C(C)=C\C=C\[C@H](C)[C@H](O)[C@@H](C)[C@@H](O)[C@@H](C)[C@H](OC(C)=O)[C@@H]1C)C4=O |  | H37Rv | MIC |  | 0.0025 µg/mL |
| CSc1ncnc2c([C@@H]3O[C@H](CO)[C@@H](O)C3O)[nH]nc12 | BACTEC | H37Rv | inhibition | 12.5 µg/mL | 27% |
| COc1ccc(C(=O)Nn2cncn2)c(O)c1 |  | My 331/88 | MIC |  | 1000 µM |
| C/C=C1/C(=O)O[C@]23C=C[C@@H]4C(C(=O)OC)=CO[C@H](O[C@@H]12)[C@@H]43 | MTT | MDR1 clinical isolate | MIC |  | 1.3 µg/mL |

A second listing of 6 rows from above:

smiles | read by | strain | endpoint | dose | value
O=C(NNc1ccccc1[N+](=O)[O-])c1cccnc1Cl |  | H37Rv | MIC |  | >20 µg/mL
CCCC(O)c1c(-c2ccccc2)c(-c2ccccc2)n2ccc(C#N)cc12 |  | H37Rv | inhibition | 6.25 µg/mL | 84%
S=c1oc(-c2ccncc2)nn1CN1CCC(Cc2ccccc2)CC1 |  | H37Rv | MIC |  | 40 µg/mL
Cc1ccnc(NC(=O)c2cc(Cl)ccc2O)n1 |  | My 331/88 | MIC |  | 250 µM
COc1ccc(C(=O)Nn2cncn2)c(O)c1 |  | My 331/88 | MIC |  | 1000 µM
O=C(CSc1nc(-c2ccccc2)c(-c2ccccc2)[nH]1)N=Nc1c(O)[nH]c2ccccc12 |  | H37Rv | MIC |  | >12.5 µg/mL